Measured values from patent publication US4141989A, “Fungicidal 3-(N-chloroacetyl-N-arylamino)-gamma-butyrolactone compositions” (Chevron Research Company, priority 1977, dated 1979).

Columns and labels:
Type in all cases: in vivo
[1] = tested on: Peronospora parasitica ssp. brassicae; test: Curative control of cabbage downy mildew (Example 14, Table IX); conditions: 160 g a.i./hl
Plasmopara viticola [2] = test: Eradicant grape downy mildew control, detached Emperor leaves (Example 6, Table I)
Phytophthora cryptogea [3] = test: Snapdragon crown and root rot control, foliar spray (Example 16, Table XI); conditions: 100 ppm
Plasmopara viticola [4] = test: Eradicant downy mildew control on Emperor and Carignane grape leaves (Example 9, Table IV)
[5] = tested on: Peronospora parasitica ssp. brassicae; test: Preventive control of cabbage downy mildew (Example 14, Table IX); conditions: 160 g a.i./hl
Phytophthora cryptogea [6] = test: Snapdragon crown and root rot control, soil drench (Example 16, Table XI); conditions: 100 ppm
Bremia lactucae = test: Control of lettuce downy mildew (Example 13, Table VIII); conditions: 160 g active/hl
Plasmopara viticola [7] = test: Preventive grape downy mildew control, detached Cabernet Sauvignon leaves (Example 7, Table II)
Plasmopara viticola [8] = test: Preventive grape downy mildew control, detached Emperor leaves (Example 5, Table I)
[9] = disease reduction relative to check flat
[10] = Carignane leaves, treated 3 days after inoculation
[11] = Emperor leaves, treated 1 day after inoculation
[12] = Emperor leaves, treated 2 days after inoculation

O=C1[C@H]2CC=CC[C@H]2C(=O)N1SC(Cl)(Cl)C(Cl)Cl (relative stereo)
% Diseased Seedlings [1]: 65.5% | % Control [1, 9]: 32.9% | Eradicative Grape Downy Mildew Control, % (Plasmopara viticola [2]; 200 ppm, sprayed 2 days after inoculation): 74% | Eradicative ED50 (ppm of applied spray for 50% control) (Plasmopara viticola [2]; eradicative): 100 ppm | Eradicative ED90 (ppm of applied spray for 90% control) (Plasmopara viticola [2]; eradicative): 310 ppm | % Control (Phytophthora cryptogea [3]): 0% | Eradication ED50 (ppm of applied spray for 50% control) (Plasmopara viticola [4]; [10]): 206 ppm | Eradication ED90 (ppm of applied spray for 90% control) (Plasmopara viticola [4]; [10]): 670 ppm | Eradication ED50 (ppm of applied spray for 50% control) (Plasmopara viticola [4]; [11]): 55 ppm | Eradication ED90 (ppm of applied spray for 90% control) (Plasmopara viticola [4]; [11]): 145 ppm | Eradication ED50 (ppm of applied spray for 50% control) (Plasmopara viticola [4]; [12]): 64 ppm | Eradication ED90 (ppm of applied spray for 90% control) (Plasmopara viticola [4]; [12]): 168 ppm | % Diseased Seedlings [5]: 59.6% | % Control [5, 9]: 38.9% | % Control (Phytophthora cryptogea [6]): 0% | % Control (Bremia lactucae): 85.2% | % Dead Seedlings (Bremia lactucae): 3.6% | Percent Control (Plasmopara viticola [7]; 6.4 ppm): 95.3% | Percent Control (Plasmopara viticola [7]; 16 ppm): 98.8% | Percent Control (Plasmopara viticola [7]; 40 ppm): 96.5% | Preventive Grape Downy Mildew Control, % (Plasmopara viticola [8]; 40 ppm, sprayed before inoculation): 84% | Preventive ED50 (ppm of applied spray for 50% control) (Plasmopara viticola [8]; preventive): 22 ppm | Preventive ED90 (ppm of applied spray for 90% control) (Plasmopara viticola [8]; preventive): 54 ppm
